Measurements as given in patent US20240317834A1, “COMPOSITIONS AND METHODS FOR NEUROLOGICAL DISEASES” (CODA BIOTHERAPEUTICS, published 2024).
Positions count from the first letter of the chain named.

Key:
[1] = biological target: T1, CODA534 (L131S, S172D in SEQ ID NO: 33) (human (chimera of human α7-nAChR and …))
T1 chain: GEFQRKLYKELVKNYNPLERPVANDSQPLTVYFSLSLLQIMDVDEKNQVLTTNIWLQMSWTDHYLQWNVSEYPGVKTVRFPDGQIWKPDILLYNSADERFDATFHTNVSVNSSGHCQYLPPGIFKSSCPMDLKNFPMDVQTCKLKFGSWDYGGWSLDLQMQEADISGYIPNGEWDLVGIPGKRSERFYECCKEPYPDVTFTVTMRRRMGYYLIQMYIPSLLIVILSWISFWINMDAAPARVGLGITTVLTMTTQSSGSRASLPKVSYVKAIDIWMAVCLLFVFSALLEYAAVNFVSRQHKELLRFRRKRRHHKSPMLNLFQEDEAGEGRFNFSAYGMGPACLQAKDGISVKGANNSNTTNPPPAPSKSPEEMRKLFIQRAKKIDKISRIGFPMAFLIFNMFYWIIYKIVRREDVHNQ

[2] = biological target: T2, CODA342 (L131R in SEQ ID NO: 33) (human (chimera of human α7-nAChR and …))
T2 chain: T1 chain with S109R, D150S

[3] = biological target: CODA1073
[4] = biological target: CODA1072
[5] = biological target: T3, CODA335 (L131T in SEQ ID NO: 33) (human (chimera of human α7-nAChR and …))
T3 chain: T1 chain with S109T, D150S

[6] = biological target: T4, CODA1027 (R101F, L131D in SEQ ID NO: 33) (human (chimera of human α7-nAChR and …))
T4 chain: T1 chain with R79F, S109D, D150S

[7] = biological target: T5, CODA806 (Y115D, L131Q in SEQ ID NO: 33) (human (chimera of human α7-nAChR and …))
T5 chain: T1 chain with Y93D, S109Q, D150S

[8] = biological target: T6, CODA536 (L131D, S172D in SEQ ID NO: 33) (human (chimera of human α7-nAChR and …))
T6 chain: T1 chain with S109D

B1: α-bungarotoxin conjugated to Alexa Fluor 647 (ligand)
chain: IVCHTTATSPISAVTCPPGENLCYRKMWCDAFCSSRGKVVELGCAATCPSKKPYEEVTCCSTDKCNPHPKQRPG
Normalized AB % [1]: 0.44 ratio to SEQ ID NO: 33 control
Normalized AB % [2]: 0.61 ratio to SEQ ID NO: 33 control
Normalized AB MFI [2]: 1.24 ratio to SEQ ID NO: 33 control
Normalized AB MFI [3]: 0.7 ratio to SEQ ID NO: 33 control
Normalized AB % [4]: 0.51 ratio to SEQ ID NO: 33 control
Normalized AB MFI [4]: 0.69 ratio to SEQ ID NO: 33 control
Normalized AB MFI [5]: 1.32 ratio to SEQ ID NO: 33 control
Normalized AB % [6]: 0.5 ratio to SEQ ID NO: 33 control
Normalized AB MFI [6]: 0.68 ratio to SEQ ID NO: 33 control
Normalized AB MFI [7]: 2.04 ratio to SEQ ID NO: 33 control
Normalized AB % [8]: 0.48 ratio to SEQ ID NO: 33 control
Normalized AB MFI [8]: 0.87 ratio to SEQ ID NO: 33 control
